Test results reported in patent publication US9028845B2, “Chimeric immunomodulatory compounds and methods of using the same-IV” (Dynavax Technologies Corporation, priority 2001, dated 2015).
Marks after values point to notes of the source that are not given here.

Tested on: hepatitis B surface antigen (HBsAg)
Experiment: Baboon anti-HBsAg antibody response to HBsAg co-administered with CIC (AUSAB EIA)

Substance: 5′-TGACTGTGAACGTTCGAGATGA-3′ (SEQ ID NO: 2)
- titers of anti-HBsAg antibodies compared to HBsAg alone, in words (20 μg HBsAg + 1000 μg test compound IM at 0 and 2 months): increased titers of anti-HBsAg antibodies
- Anti-HBsAg (mIU/ml) post-first, Mean (group mean, post-first immunization, 20 ug HBsAg, with 1000 ug P-6 or CIC where given): 7 mIU/ml
- Anti-HBsAg (mIU/ml) post-second, Mean (group mean, post-second immunization, 20 ug HBsAg, with 1000 ug P-6 or CIC where given): 2200* mIU/ml
